Measured values published in paper PMC9923724, “Half sandwich-type osmium, ruthenium, iridium and rhodium complexes with bidentate glycosyl heterocyclic ligands induce cytostasis in platinum-resistant ovarian cancer cells and bacteriostasis in Gram-positive multiresistant bacteria” (Frontiers in Chemistry, 2023).

Legend:
Type in all cases: cell-based
Settings in all cases: Hill slope
[1] = tested on: A2780 ovarian cancer cells; assay: SRB assay (cytostasis, 48 h) on A2780 cells
Protocol: First, we assessed a set of osmium complexes (similar to Ia [[Kacsir et al., 2022]) in Figure 1] and their sugar-derived ligands, in which the benzoyl protective groups on the carbohydrate moiety were replaced by aliphatic acyl groups of different chain length (straight chain C3-C7–CO). Osmium was selected as a central ion, since osmium complexes had the best biological activity in our previous studies ([Balázs et al., 2022]; [Kacsir et al., 2022]). These compounds were tested on A2780 ovarian cancer cells for toxicity and cytostasis. The therapy of ovarian cancer is centered around platinum compounds ([Brown et al., 2019]; [Sipos et al., 2021]), therefore, it was logical to use a cellular model of ovarian cancer for the initial testing of the compounds. Toxicity was assessed using the MTT assay that measures the activity of mitochondrial complex I. We chose 4 h long treatment as in an MTT assay this time point is suitable to detect rapid, direct toxicity. Cytostasis was assessed after 48 h of treatment using the SRB assay that assesses protein content that corresponds to cell count. The characteristics of the compounds are detailed in Table 2.
3 × 10^3 A2780 cells, were plated to 96 well plates. Cells were treated with the compounds in the concentrations indicated for either 4 h for an MTT assay or for 48 h for an SRB assay. Data is represented as average ± SD, from three biological replicates; individual assays were performed in duplicates. Values were normalized for vehicle treated cells, absorbance for vehicle treated cells equals to 1. […] Except for the Os-6 complex, Two-way ANOVA test was performed and all values were compared with each other (Tukey’s post hoc test). […] Non-linear regression was performed on the data.
(§1) 3 × 10^3 A2780 cells, 2 × 10^3 ID8 cells and 4 × 10^3 primary fibroblasts were plated to 96 well plates. Cells were treated with the compounds in the concentrations indicated for either 4 h for an MTT assay or for 48 h for an SRB assay. Data is represented as average ± SD, from three biological replicates; individual assays were performed in duplicates. Values were normalized for vehicle treated cells, absorbance for vehicle treated cells equals to 1. Statistical significance was assessed using two-way ANOVA test comparing the free ligand and each complex as a complex-ligand pair. Before the test normality was assessed using the D’Agostino-Pearson test. The ID8 SRB Ir-7+L-7 dataset had lognormal distribution. […] All other datasets had normal distribution. For better visibility the p values are presented in an excel sheet at https://figshare.com/s/2c942a812caea8869a67. Non-linear regression was performed on the A2780 SRB and the ID8 SRB datasets.
(§2) The assay was performed similar to ([Kovács et al., 2019]). Cells were seeded in 96 well plates the day before the assay. Cells were treated with the compounds for 48 h. Cells were fixed with 10% trichloroacetic acid (TCA). Fixed cells were washed in distilled water 3 times followed by staining with SRB (0.4 m/V% dissolved in 1% acetic acid) for 10 min. Stained cells were washed in 1% acetic acid 5 times; acetic acid was removed and cells were left to dry. Protein-bound SRB was released by adding 100 µl 10 mM Tris base. Plates were measured in a plate photometer (Thermo Scientific Multiscan GO spectrophotometer, Waltham, MA, United States) at 540 nm. On each plate wells were designed to contain vehicle-treated cells. In calculations the readings for these wells was considered as 1 and all readings were expressed relative to these values.
Statistical analysis was performed using 8.0.1 version of Graphpad Prism. Values were tested for normal distribution using the D’Agostino and Pearson normality test. When necessary, values were log normalized or were normalized using the Box-Cox normalization method ([Box and Cox, 1964]) as indicated in the figure captions. […]

[2] = tested on: ID8 ovarian cancer cells; assay: SRB assay (48 h) on ID8 cells
Protocol: as §1
ID8 cells were cultured in high glucose DMEM (4.5 g/L glucose) medium supplemented with 4% fetal calf serum, 2 mM glutamine, 1% penicillin-streptomycin, 1% ITS supplement (I3146).
as §2
(§3) Statistical analysis was performed using 8.0.1 version of Graphpad Prism. […]

[3] = tested on: cisplatin resistant A2780 cells; assay: SRB assay (48 h) on cisplatin-resistant A2780 cells
Protocol: 6 × 10^3 cisplatin-resistant A2780 cells were plated to 96 well plates. Cells were treated with the compounds in the concentrations indicated for either 4 h for an MTT assay or for 48 h for an SRB assay. Data is represented as average ± SD, from three biological replicates; individual assays were performed in duplicates. Values were normalized for vehicle treated cells, absorbance for vehicle treated cells equals to 1. Each compound was assessed individually. Normality was assessed using the Shapiro-Wilk test. […] Statistical significance was assessed using One-way ANOVA test comparing all points to the smallest concentration. For better visibility the p values are presented in an excel sheet at https://figshare.com/s/2c942a812caea8869a67. Non-linear regression was performed on the results of the SRB assay datasets.
Cisplatin resistant cells underwent selection (1 µM cisplatin) once a week for 3 days before plating for any assay.
as §2
Statistical analysis was performed using 8.0.1 version of Graphpad Prism. Values were tested for normal distribution using the D’Agostino and Pearson normality test. When necessary, values were log normalized or were normalized using the Box-Cox normalization method ([Box and Cox, 1964]) as indicated in the figure captions.

[4] = tested on: Capan2 pancreatic adenocarcinoma cells; assay: SRB assay (48 h) on Capan2 cells
Protocol: (§4) 3 × 10^3 Capan2 cells, 2 × 10^3 Saos cells and 8 × 10^3 L428 were plated to 96 well plates. Cells were treated with the compounds in the concentrations for 48 h. Then for Capan2 and Saos SRB assay was performed, L428 cells were counted using a Burker chamber. Data is represented as average ± SD, from three biological replicates; individual assays were performed in duplicates. Values were normalized for vehicle treated cells, absorbance for vehicle treated cells equals to 1. Normality was checked using the Shapiro-Wilk test. The Saos Os-7 dataset was normalized using the Box-Cox method, other datasets had normal distribution. Each complex was individually assessed for statistical significance using One-way ANOVA test followed by Dunnett’s post hoc test; all values were compared to the values of the lowest concentration. For better visibility the p values are presented in an excel sheet at https://figshare.com/s/2c942a812caea8869a67. Non-linear regression was performed on the Capan2 and Saos datasets.
Capan2 cells were maintained in MEM, 10% fetal bovine serum, 1% Penicillin/Streptomycin, 2 mM Glutamine.
as §2, §3

[5] = tested on: Saos osteosarcoma cells; assay: SRB assay (48 h) on Saos cells
Protocol: as §4
Saos cells were maintained in DMEM (4.5 g/L glucose) medium supplemented with 10% fetal calf serum, 2 mM glutamine, 1% penicillin-streptomycin.
as §2, §3

Row | Structure (SMILES) | A2780 SRB Hill [1] | ID8 SRB Hill [2] | cisplatin resistant A2780 SRB Hill [3] | Capan2 SRB Hill [4] | SAOS SRB Hill [5]
1 | Cc1c(C)c(C)[c-](C)c1C.F[P-](F)(F)(F)(F)F.O=C(OCC1OC(n2cc(-c3ccc4ccccc4n3)nn2)C(OC(=O)c2ccccc2)C(OC(=O)c2ccccc2)C1OC(=O)c1ccccc1)c1ccccc1.[Cl][Ir+2] (mixture of isomers) [Ir-7] | 1.84 | 2.98 | 2.40 | 1.78 | 2.98
2 | CCCC(=O)OCC1OC(n2cc(-c3ccccn3)nn2)C(OC(=O)CCC)C(OC(=O)CCC)C1OC(=O)CCC.Cc1ccc(C(C)C)cc1.F[P-](F)(F)(F)(F)F.[Cl][Os+] (mixture of isomers) [Os-2] | 2.25 | – | – | – | –
3 | CCCCC(=O)OCC1OC(n2cc(-c3ccccn3)nn2)C(OC(=O)CCCC)C(OC(=O)CCCC)C1OC(=O)CCCC.Cc1ccc(C(C)C)cc1.F[P-](F)(F)(F)(F)F.[Cl][Os+] (mixture of isomers) [Os-3] | 2.50 | – | – | – | –
4 | CCCCCC(=O)OCC1OC(n2cc(-c3ccccn3)nn2)C(OC(=O)CCCCC)C(OC(=O)CCCCC)C1OC(=O)CCCCC.Cc1ccc(C(C)C)cc1.F[P-](F)(F)(F)(F)F.[Cl][Os+] (mixture of isomers) [Os-4] | 2.41 | – | – | – | –
5 | CCCCCCC(=O)OCC1OC(n2cc(-c3ccccn3)nn2)C(OC(=O)CCCCCC)C(OC(=O)CCCCCC)C1OC(=O)CCCCCC.Cc1ccc(C(C)C)cc1.F[P-](F)(F)(F)(F)F.[Cl][Os+] (mixture of isomers) [Os-5] | 2.33 | – | – | – | –
6 | Cc1ccc(C(C)C)cc1.F[P-](F)(F)(F)(F)F.O=C(OCC1OC(n2cc(-c3ccc4ccccc4n3)nn2)C(OC(=O)c2ccccc2)C(OC(=O)c2ccccc2)C1OC(=O)c1ccccc1)c1ccccc1.[Cl][Os+] (mixture of isomers) [Os-7] | 1.80 | 4.48 | 1.17 | 1.26 | 1.22
7 | Cc1ccc(C(C)C)cc1.F[P-](F)(F)(F)(F)F.O=C(OCC1OC(n2cc(-c3ccc4ccccc4n3)nn2)C(OC(=O)c2ccccc2)C(OC(=O)c2ccccc2)C1OC(=O)c1ccccc1)c1ccccc1.[Cl][Ru+] (mixture of isomers) [Ru-7] | 1.84 | 3.78 | 1.82 | 2.08 | 5.16
